PubChem BioAssay AID504761 | Drosophila RNAi Screening Center, 2011

Assay: 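Fly genes whose silencing reduces dengue virus type 2 infection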 (primary screen)
Cell system: D.Mel-2 cells from Drosophila
Reagents: long dsRNA against Drosophila genes
Challenge: infection with dengue virus type 2; dose and infection time not stated
Measured: 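Per well on two replicate plates, imaging gave the percent of cells positive for viral envelope protein, ranked by infection, and a nuclear count of cells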
Scale: infection score: higher = more virus-infected cells; cell count: higher = more cells in the well
Active means: 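Low infection ranks in the two replicates (chance level up to 0.065) followed by a retest with a 1.5-fold or larger significant decrease, p below 0.05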
Calls: active = confirmed: knock-down lowers infection; inactive = not picked or not confirmed
The screen tested about 22,000 reagents; this is a random part of those with a known target gene and a result. In the full data, 116 (0.52%) were called active. 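Calls depend on retest data that are not deposited; infection was ranked per plate without normalising between plates; the unit of the infection score is not given.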 The raw values are shown without normalisation. Names joined by + are all predicted targets of the reagent. Reagent sequences are not shown. Not given: the amount of reagent, the time to read-out.

| gene knocked down | amplicon | infection score, replicate 1 | infection score, replicate 2 | cell count, replicate 1 | cell count, replicate 2 | activity call |
| --- | --- | --- | --- | --- | --- | --- |
| CG14926 (GeneID 34567) | DRSC02409 | 11.1 | 18 | 6201 | 5976 | inactive |
| CG5326 (GeneID 42655) | DRSC13568 | 2.17 | 1.62 | 6173 | 5492 | inactive |
| CG5326 (GeneID 42655) | DRSC15770 | 1.54 | 7.6 | 6756 | 6616 | inactive |
| CG5326 (GeneID 42655) | DRSC23719 | 0.69 | 0.61 | 6240 | 6182 | inactive |
| CG5639 (GeneID 43314) | DRSC15851 | 4.84 | 2.5 | 6555 | 6628 | inactive |
| Pgm2b (GeneID 36649) | DRSC05978 | 6.62 | 13.2 | 2358 | 6762 | inactive |
| Pgm2b (GeneID 36649) | DRSC26452 | 4.78 | 2.16 | 7030 | 6467 | inactive |
| Taf8 (GeneID 32792) | DRSC20363 | 13.3 | 21.9 | 5484 | 5481 | inactive |
| gb (GeneID 43265) | DRSC15961 | 2.33 | 2.68 | 6320 | 6904 | inactive |
| gb (GeneID 43265) | DRSC24834 | 15.8 | 6.58 | 6547 | 6534 | inactive |
| Tsp42Eb + CG30160 | DRSC04961 | 1.32 | 3.81 | 5988 | 6161 | inactive |
| Tsp42Eb + CG30160 | DRSC06791 | 22.9 | 22.4 | 5863 | 4922 | inactive |
| Obp93a (GeneID 42506) | DRSC15220 | 14.7 | 6.07 | 3448 | 6488 | inactive |

Laid out differently: 2 of the entries above
{"gene knocked down": "CG5326 (GeneID 42655)", "amplicon": "DRSC23719", "infection score, replicate 1": 0.69, "infection score, replicate 2": 0.61, "cell count, replicate 1": 6240, "cell count, replicate 2": 6182, "activity call": "inactive"}
{"gene knocked down": "CG5639 (GeneID 43314)", "amplicon": "DRSC15851", "infection score, replicate 1": 4.84, "infection score, replicate 2": 2.5, "cell count, replicate 1": 6555, "cell count, replicate 2": 6628, "activity call": "inactive"}

The listing continues:
| gene knocked down | amplicon | infection score, replicate 1 | infection score, replicate 2 | cell count, replicate 1 | cell count, replicate 2 | activity call |
| --- | --- | --- | --- | --- | --- | --- |
| sr (GeneID 42162) | DRSC13284 | 6.19 | 4.73 | 5238 | 4571 | inactive |
| sr (GeneID 42162) | DRSC25793 | 2.76 | 2.68 | 6627 | 6483 | inactive |
| Smyd4-2 (GeneID 39414) | DRSC10126 | 2.12 | 0.5 | 6591 | 5982 | inactive |
| Smyd4-2 (GeneID 39414) | DRSC25934 | 2.15 | 12.5 | 6237 | 5919 | inactive |
| Cyp6t2Psi (GeneID 3772355) | DRSC01840 | 1.87 | 1.22 | 5873 | 6090 | inactive |
| Cyp6t2Psi (GeneID 3772355) | DRSC29500 | – | – | 292 | 362 | inactive |
| NP15.6 (GeneID 42282) | DRSC16756 | 2.16 | 0.6 | 5970 | 6125 | inactive |
| NP15.6 (GeneID 42282) | DRSC26741 | 28.8 | 23.4 | 5215 | 5902 | inactive |
| Teh1 (GeneID 41215) | DRSC14544 | 1.98 | 2.62 | 6263 | 6480 | inactive |
| Vajk4 (GeneID 36950) | DRSC06589 | 2.68 | 7.27 | 6688 | 6934 | inactive |
| Vajk4 (GeneID 36950) | DRSC07003 | 8.75 | 14.3 | 5439 | 4830 | inactive |
| Vajk4 (GeneID 36950) | DRSC25326 | 3.12 | 4.91 | 6083 | 6537 | inactive |
